Biological target: H1N1 NA (Influenza A virus (H1N1), UniProt C3W5S3)
Format: biochemical

## Oseltamivir [OTV, reference compound]
  ΔGbind (estimated experimental): -76.36 kJ/mol

— PMC5171792 (Scientific Reports, 2016)
